Assay results from patent publication US8354433B2, “Anti-inflammatory agents as virostatic compounds” (4SC AG, priority 2009, dated 2013).

What was measured:
HIV-191US005 = experiment: Anti-HIV efficacy in fresh human PBMCs (RT activity and p24 ELISA); type: cell-based, HIV-1; settings: TI=TC/IC
[1] = test system: HCV subgenomic replicon of genotype 1b; type: cell-based, Hepatitis C Virus

O=C(Nc1c(F)c(F)c(-c2cccc(OC(F)(F)F)c2)c(F)c1F)c1ccsc1C(=O)O [Compound 1, 3-(2,3,5,6-Tetrafluoro-3′-trifluoromethoxy-biphenyl-4-ylcarbamoyl)-thiophene-2-carboxylic acid]
Therapeutic Index (HIV-191US005; Endpoint RT): >842 | Therapeutic Index (HIV-191US005; Endpoint p24): >598 | Therapeutic Index [1]: >1250

O=C(O)C1=C(C(=O)Nc2c(F)cc(-c3ccccc3Cl)cc2F)CSC1 [Compound 2, 4-(2′-Chloro-3,5-difluoro-biphenyl-4-ylcarbamoyl)-2,5-dihydro-thiophene-3-carboxylic acid]
Therapeutic Index (HIV-191US005; Endpoint RT): >109 | Therapeutic Index (HIV-191US005; Endpoint p24): >72 | Therapeutic Index [1]: >147

O=C(Nc1ccc(-c2ccccc2)cc1)Nc1ccccc1C(=O)O [Compound 7, 2-(3-biphenyl-4-ylureido)benzoic acid]
Therapeutic Index (HIV-191US005; Endpoint RT): >2046 | Therapeutic Index (HIV-191US005; Endpoint p24): >1804

COc1cccc(-c2c(F)c(F)c(NC(=O)c3occc3C(=O)O)c(F)c2F)c1 [Compound 8, 2-(2,3,5,6-tetrafluoro-3′-methoxybiphenyl-4-ylcarbamoyl)furan-3-carboxylic acid]
Therapeutic Index (HIV-191US005; Endpoint RT): >131 | Therapeutic Index (HIV-191US005; Endpoint p24): >119

COc1ccc(-c2ccc(NC(=O)C3=C(C(=O)O)CCC3)cc2Cl)cc1 [Compound 14, 2-(2-chloro-4′-methoxybiphenyl-4-ylcarbamoyl)cyclopent-1-enecarboxylic acid]
Therapeutic Index (HIV-191US005; Endpoint RT): >19 | Therapeutic Index (HIV-191US005; Endpoint p24): >19

O=C(O)C1=C(C(=O)Nc2ccc(OCc3c(F)cccc3Cl)c(F)c2)CCC1 [Compound 21, 2-[4-(2-Chloro-6-fluoro-benzyloxy)-3-fluoro-phenylcarbamoyl]-cyclopent-1-enecarboxylic acid]
Therapeutic Index [1]: >17

O=C(O)C1=C(C(=O)Nc2cc(Cl)c(OCc3c(F)cccc3Cl)c(Cl)c2)CCC1 [Compound 22, 2-[3,5-Dichloro-4-(2-chloro-6-fluoro-benzyloxy)-phenylcarbamoyl]-cyclopent-1-enecarboxylic acid]
Therapeutic Index [1]: >17

CN(C)c1ccc(-c2ccc(NC(=O)C3=C(C(=O)O)CCC3)cc2Cl)cc1 [Compound 23, 2-(2-Chloro-4′-dimethylamino-biphenyl-4-ylcarbamoyl)-cyclopent-1-enecarboxylic acid]
Therapeutic Index (HIV-191US005; Endpoint RT): >93 | Therapeutic Index (HIV-191US005; Endpoint p24): >99

COc1cccc(-c2ccc(NC(=O)c3ccsc3C(=O)O)c(F)c2)c1 [Compound 24, 3-(3-Fluoro-3′-methoxy-biphenyl-4-ylcarbamoyl)-thiophene-2-carboxylic acid]
Therapeutic Index (HIV-191US005; Endpoint RT): 14 | Therapeutic Index (HIV-191US005; Endpoint p24): 12
